From US20230365647A1, “MANNOSE RECEPTOR-DERIVED PEPTIDES FOR NEUTRALIZING PORE-FORMING TOXINS FOR THERAPEUTIC USES” (priority 2020, published 2023)

Legend:
SLO [1] = molecular target: T1, SLO (Streptococcus pyogenes serotype M1, UniProt P0C0I3, E324D/N47S/T59I/T66M); conditions: peptides immobilized on plates; increasing doses of purified SLO
SLO [2] = molecular target: T1, SLO; conditions: 0.5 μg/ml SLO; 100 μM peptide; 18 h
SLO [3] = molecular target: T1, SLO; conditions: 100 μM peptide; 1 μg/ml purified SLO

Molecule | binding to SLO (ELISA) (SLO [1]) | cell death of macrophages induced by SLO (LDH release) (SLO [2]) | inhibition of SLO-induced hemolysis (SLO [3])
C[C@H](NC(=O)[C@H](Cc1c[nH]c2ccccc12)NC(=O)[C@H](CC(N)=O)NC(=O)[C@H](CCC(=O)O)NC(=O)[C@@H](N)Cc1ccc(O)cc1)C(=O)N[C@@H](Cc1ccc(O)cc1)C(=O)NCC(=O)N[C@@H](CCC(=O)O)C(=O)N1CCC[C@H]1C(=O)N[C@@H](CC(N)=O)C(=O)N[C@@H](CC(N)=O)C(=O)N[C@@H](Cc1ccc(O)cc1)C(=O)N[C@@H](CCC(N)=O)C(=O)O | bound dose-dependently | significantly reduced cell death | 60%
LVGNIEQNEHSVI | – | no significant effect | –
